Source: USRE47786E1, “Haloalkyl heteroaryl benzamide compounds” (Romark Laboratories, L.C., priority 2009, dated 2019)

Legend:
HBV = HBV extracellular virion antiviral assay in 2.2.15 cells; type: cell-based, Hepatitis B Virus; conditions: CC50/EC90 for HBV assays
Protocol: HBV antiviral assays were conducted as previous described [Korba and Gerin, Antiviral Res. 19:55 (1992 Confluent cultures of 2.2.15 cells were maintained on 96-well flat-bottomed tissue culture plates (confluence in this culture system is required for active, high levels of HBV replication equivalent to that observed in chronically-infected individuals [Sells et al. J. Virol. 62, 2836-2844 (1988); Korba and Gerin (1992)]. Cultures were treated with nine consecutive daily doses of the test compounds. HBV DNA levels were assessed by quantitative blot hybridization 24 hr. after the last treatment. Cytotoxicity was assessed by uptake of neutral red dye 24 hr. following the last treatment.
EC50, EC90 and CC50 values (±standard deviations [S.D.]) were calculated by linear regression analysis using data combined from all treated cultures (Korba and Gerin, 1992; Okuse et al., 2005). […] CC50 is the drug concentration at which a 2-fold lower level of neutral red dye uptake (relative to the average levels in untreated cultures) was observed. Selectivity index (S.I.) was calculated as CC50/EC90 for HBV assays and CC50/EC50 for HCV assays. EC90 values were used for calculation of the S.I. in HBV assays since at least a 3-fold depression of HBV DNA levels is typically required to achieve statistical significance in this assay system (Korba and Gerin, 1992). For combination treatments, EC50, EC90, CC50 and S.I. are presented for the first compound listed. The molar ratio of the compounds in each combination is also indicated.

[1] = system: HCV replicon cell line, AVAS (sub-genomic CONI, genotype 1b); experiment: Primary HCV replicon cell assay, genotype 1B; type: cell-based, Hepatitis C Virus; conditions: CC50/EC50 for HCV assays
Protocol: Antiviral activity of test compounds was assessed in a 3-day assay using the stably-expressing HCV replicon cell line, AVAS (sub-genomic CONI, genotype 1b) [Blight et al., Science 290, 1972-1974 (2000)] maintained as sub-confluent cultures on 96-well plates as previously described (Okuse et al., Antiviral Research 65, 23-34 (2005)]. Antiviral activity was determined by blot hybridization analysis of intracellular HCV RNA (normalized to the level of cellular B-actin RNA in each culture sample) and cytotoxicity was assessed by neutral red dye uptake after 3 days of treatment. Additional studies were performed using Huh7 cells containing another HCV replicon, H/FL-Neo, a genotype 1a full length construct [Blight et al., J. Virol. 77, 3181-3190 (2003)]. For studies involving human serum, standard culture medium (which contains 10% fetal bovine serum) and assay conditions were maintained.
EC50, EC90 and CC50 values (±standard deviations [S.D.]) were calculated by linear regression analysis using data combined from all treated cultures (Korba and Gerin, 1992; Okuse et al., 2005). EC50 and EC90 are drug concentrations at which a 2-fold, or a 10-fold depression of intracellular HBV DNA or HCV RNA (relative to the average levels in untreated cultures), respectively, was observed. CC50 is the drug concentration at which a 2-fold lower level of neutral red dye uptake (relative to the average levels in untreated cultures) was observed. Selectivity index (S.I.) was calculated as CC50/EC90 for HBV assays and CC50/EC50 for HCV assays. EC90 values were used for calculation of the S.I. in HBV assays since at least a 3-fold depression of HBV DNA levels is typically required to achieve statistical significance in this assay system (Korba and Gerin, 1992). For combination treatments, EC50, EC90, CC50 and S.I. are presented for the first compound listed. The molar ratio of the compounds in each combination is also indicated.

SMILES	SI (VIR) (HBV)	SI [1]
CC(=O)Oc1ccccc1C(=O)Nc1ncc(C(F)(F)F)s1 [Compound 1]	>11	0.9
O=C(Nc1ncc(C(F)(F)F)s1)c1ccccc1O [Compound 2]	>11	58.0
CC(=O)Oc1ccccc1C(=O)Nc1nnc(C(F)(F)F)s1 [Compound 5]		15.0
O=C(Nc1nnc(C(F)(F)F)s1)c1ccccc1O [Compound 6]		1.4
CC(=O)Oc1ccccc1C(=O)Nc1ncc([N+](=O)[O-])s1 [Nitazoxanide, reference compound]	>121	169.0
O=C(Nc1ncc([N+](=O)[O-])s1)c1ccccc1O [Tizoxanide, reference compound]	>172	100.0
